Source: PMC7797058, “Characterization of the first tetrameric transcription factor of the GntR superfamily with allosteric regulation from the bacterial pathogen Agrobacterium fabrum” (Nucleic Acids Research, 2020)

Target: T1, Atu1419-H3A H141A,H192A,H214A (Agrobacterium fabrum C58) (UniProt A9CJ36)
T1 sequence (looked up): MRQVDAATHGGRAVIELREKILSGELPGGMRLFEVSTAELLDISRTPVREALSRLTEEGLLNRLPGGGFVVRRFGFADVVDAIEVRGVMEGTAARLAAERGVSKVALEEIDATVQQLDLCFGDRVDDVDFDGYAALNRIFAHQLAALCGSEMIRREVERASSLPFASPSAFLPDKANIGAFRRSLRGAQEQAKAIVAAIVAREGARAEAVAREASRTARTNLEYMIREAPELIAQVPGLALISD
Experiment: EMSA
Settings: EMSA: 50 mM Tris-HCl pH 8, 150 mM NaCl, 30 nM DNA, 30 min at room temperature; gel 6% or 12% PAGE in TBE at 4 C; recombinant protein; residues 1-244; protein details: C-terminal 6xHis; probe letters rebuilt from the primers and the genome

## CCATGTGTCGCAGCATCCACCTGCCTCATATCTCACCCCTTCCATCCACCGGAGCGCCGCCATCAACGACATCGAGCACGCTTATTCAAGCGACATGCCATGTATACATTAGCAACTCAAGCAACAGGACACAGAACTTCACCACCGACAGGACATGCCGCCTCCCTTTGAAATCGCACAGAAATCATAGGCTAAACCGACACCATCGCATCAACATGTATTCATTCAATCTAATTAAGATTAAATAATTCGTCAATATTCTTGGTTTTTCGCAAAATTTTGATTGAAGTAGCCGTTTCATGTATACATAATCAGGTCTCGCTAAGGGAGAAAGCGATGGGTTGGTCGAGTTTTTGGGATAATTCCGGTG (double strand) [Patu1418-1419]
  binding result: binds

Protein sequences can lack the tags named with them.
